Taken from: PubChem BioAssay AID1259414 (Drosophila RNAi Screening Center, 2018)
Screen: 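Fly genes that alter Wolbachia amount inside host cells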 (primary screen). Cell system: Drosophila JW18 cells infected with Wolbachia. Reagents: long dsRNA against Drosophila genes, 0.25 µg dsRNA per well of a 384-well plate. Timing: 5 days. Conditions: cells persistently infected with Wolbachia before knock-down; no added drug. Read-out: 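Imaged fluorescence in situ signal for Wolbachia 23S rRNA per DAPI-counted host cell, given as a robust z-score within each plate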. Direction: Wolbachia per cell robust z: higher = more Wolbachia per host cell than the plate typical. Hit rule: 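Hit when robust z is 1.5 or more, or -1.5 or less, in at least two of three replicates; excludes dsRNAs with several or no targets, genes not expressed in JW18 and well A1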.
In all, the deposit lists about 24,000 reagents; this is an unselected part of those that have a named target and a result. In the full data, about 1,210 (5%) are marked active. 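Inactive calls also include excluded dsRNAs with several or no targets, genes unexpressed in JW18, and well A1, regardless of score.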 Names joined by + are all predicted targets of the reagent. Reagent sequences are not shown.

no.	Target gene	amplicon	Wolbachia per cell robust z, rep 1	Wolbachia per cell robust z, rep 2	Wolbachia per cell robust z, rep 3	activity call
1	CG14573	DRSC11734	-0.344	0.0644	0.338	inactive
2	CG14573	DRSC29094	-0.44	1.55	0.13	inactive
3	bug (bunker gear)	DRSC07137	1.41	1.06	0.622	inactive
4	CG42827	DRSC16116	0.516	-1.77	0.489	inactive
5	CG31100	DRSC14453	-0.917	1.02	1.27	inactive
6	CG31100	DRSC14455	-0.056	0.0263	-4.18	inactive
7	CG10749	DRSC09798	1.02	-0.788	0.115	inactive
8	CG10749	DRSC27656	-0.362	-3.59	-1.17	inactive
9	zfh2 (Zn finger homeodomain 2)	DRSC17178	0.462	-1.19	-8.68	inactive
10	zfh2 (Zn finger homeodomain 2)	DRSC28010	-2.27	-0.627	-2.62	active
11	CG9257	DRSC03173	-0.4	-5.92	0.305	inactive
12	CG9257	DRSC41372	-0.727	-1.32	-0.774	inactive
13	CR15821 (pseudo)	DRSC08481	-0.464	-3.85	-1.76	active
14	CR15821 (pseudo)	DRSC24584	0.0377	0.882	-0.656	inactive
15	Grx5 (Glutaredoxin 5)	DRSC19593	-0.333	-0.475	-2.36	inactive
16	CG15365	DRSC23021	0.209	-0.191	-0.504	inactive
17	gom (gomdanji)	DRSC04690	-3.5	0.862	0.112	inactive

Quoted from the entries so far, 6 entries:
no.	Target gene	amplicon	Wolbachia per cell robust z, rep 1	Wolbachia per cell robust z, rep 2	Wolbachia per cell robust z, rep 3	activity call
9	zfh2 (Zn finger homeodomain 2)	DRSC17178	0.462	-1.19	-8.68	inactive
10	zfh2 (Zn finger homeodomain 2)	DRSC28010	-2.27	-0.627	-2.62	active
11	CG9257	DRSC03173	-0.4	-5.92	0.305	inactive
12	CG9257	DRSC41372	-0.727	-1.32	-0.774	inactive
13	CR15821 (pseudo)	DRSC08481	-0.464	-3.85	-1.76	active
14	CR15821 (pseudo)	DRSC24584	0.0377	0.882	-0.656	inactive

The results go on.
no.	Target gene	amplicon	Wolbachia per cell robust z, rep 1	Wolbachia per cell robust z, rep 2	Wolbachia per cell robust z, rep 3	activity call
18	Muc68Ca (Mucin 68Ca)	DRSC10312	0.823	-1.35	-0.568	inactive
19	Muc68Ca (Mucin 68Ca)	DRSC10313	0.537	0.0276	0.897	inactive
20	Su(fu) (Suppressor of fused)	DRSC16871	-0.38	-0.526	-0.844	inactive
21	CG32811	DRSC22649	0.681	-0.359	-0.86	inactive
22	MESK2 + CG10494	DRSC04259	-6.17	-0.271	0.0273	inactive
23	CheB38a (Chemosensory protein B 38a)	DRSC03205	-3.08	-1.18	-0.908	inactive
24	CheB38a (Chemosensory protein B 38a)	DRSC29814	0.0301	-0.154	0.604	inactive
25	Cpr64Ad (Cuticular protein 64Ad)	DRSC08284	-8.02	-0.665	0.705	inactive
26	Cpr64Ad (Cuticular protein 64Ad)	DRSC25264	-0.432	-10.8	0.507	inactive
27	sky (skywalker)	DRSC02383	0.312	0.103	0.25	inactive
28	sky (skywalker)	DRSC03214	0.673	-0.931	-0.838	inactive
29	sky (skywalker)	DRSC03215	0.259	-4.14	-0.941	inactive
30	CG31087	DRSC14253	-4.3	-1.68	-1.95	inactive
31	snoRNA:Me28S-C3420b + RpS11	DRSC07396	-2.36	-4.5	0.025	inactive
32	CNMaR (CNMamide Receptor)	DRSC08992	1.54	-0.0101	1.28	inactive
33	CNMaR (CNMamide Receptor)	DRSC10224	0.406	-0.95	-0.812	inactive
34	Coq2 (Coenzyme Q biosynthesis protein 2)	DRSC16516	1.23	-0.202	-0.199	inactive
35	Coq2 (Coenzyme Q biosynthesis protein 2)	DRSC21366	1.25	0.457	-1.07	inactive
36	Coq2 (Coenzyme Q biosynthesis protein 2)	DRSC29659	-1.11	0.267	0.795	inactive
37	eyg (eyegone)	DRSC23136	0.144	0.628	1.02	inactive
38	eyg (eyegone)	DRSC26636	-0.055	-0.324	-0.366	inactive
39	indra	DRSC08558	0.647	0.262	-0.0436	inactive
40	indra	DRSC26845	-1.3	-0.802	-0.537	inactive
41	inaF-B + inaF-D + inaF-C + 1 more	DRSC20342	-1.02	-2.05	-0.35	inactive
42	mRpS10 (mitochondrial ribosomal protein S10)	DRSC15557	-0.75	0.908	-0.482	inactive
43	to (takeout)	DRSC17086	0.602	-0.452	0.385	inactive
44	to (takeout)	DRSC29075	0.544	-2.05	-2.83	inactive
45	CG4021	DRSC04439	-0.557	-0.429	-0.563	inactive
46	CG4021	DRSC25492	-0.196	0.467	-0.482	inactive
